Tested on: calf-thymus (CT) DNA
Assay: CT DNA interaction by UV-visible spectroscopy
Conditions: DMSO solution, upon addition of CT DNA

| Compound | blue/red shift of λmax, Δλ |
| --- | --- |
| Cc1nnc(S)s1 [mtdztH, 5-methyl-1,3,4-thiadiazole-2-thiol, reference compound] | 0 nm |
| [Ag(mtdztH)(dppe)(NO3)]n [Compound 4] | 0 nm |
